{"sequences": {"note": "Protein sequences, listed by entry. Tags and fused reporters are not part of them. Residues count along the entry.", "UniProt P00642, 2-277": "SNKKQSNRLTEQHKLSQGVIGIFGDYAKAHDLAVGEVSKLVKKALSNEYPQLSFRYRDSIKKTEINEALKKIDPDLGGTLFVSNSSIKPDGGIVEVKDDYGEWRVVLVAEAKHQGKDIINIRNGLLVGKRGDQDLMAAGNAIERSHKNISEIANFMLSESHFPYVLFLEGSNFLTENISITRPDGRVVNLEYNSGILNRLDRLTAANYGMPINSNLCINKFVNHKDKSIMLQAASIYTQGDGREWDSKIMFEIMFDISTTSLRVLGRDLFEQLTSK"}, "source": "patent US20210108251", "assay_in_all_cases": "enzyme reaction in vitro", "key": {"[1]": {"molecular_target": "EcoRI (UniProt P00642)", "conditions": "5'-amine and 3'-amine, off-target enzyme, 2 units, purified recombinant protein, protein details: Thermo Scientific, folded or branched DNA"}, "[2]": {"molecular_target": "T1, PstI (UniProt P00640)", "T1 sequence (looked up, limits assumed)": "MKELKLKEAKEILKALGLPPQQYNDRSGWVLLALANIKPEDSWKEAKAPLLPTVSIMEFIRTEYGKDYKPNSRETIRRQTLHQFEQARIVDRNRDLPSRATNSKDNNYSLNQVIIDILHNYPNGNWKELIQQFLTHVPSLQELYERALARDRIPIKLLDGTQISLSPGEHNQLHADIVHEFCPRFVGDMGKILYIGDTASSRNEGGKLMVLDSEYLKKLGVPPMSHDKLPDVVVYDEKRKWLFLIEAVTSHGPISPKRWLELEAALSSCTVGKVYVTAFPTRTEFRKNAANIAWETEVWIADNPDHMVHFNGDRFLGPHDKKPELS", "conditions": "5'-amine and 3'-amine, purified recombinant protein, protein details: New England Biolabs, folded or branched DNA"}, "[3]": {"molecular_target": "EcoRI (RY13 lysate) (Escherichia coli RY13) (UniProt P00642)", "conditions": "5'-amine and 3'-amine, protein in an extract, folded or branched DNA"}, "[4]": {"conditions": "off-target enzyme, 2 units, pair SEQ 1+2"}, "[5]": {"conditions": "RY13 lysate, DH5-alpha lysate gives no or few signals"}, "[6]": {"conditions": "off-target enzyme, 2 units, pair SEQ 5+6"}, "[7]": {"conditions": "off-target enzyme, 2 units, pair SEQ 3+4"}}, "note": "For some assays here: No signal at the amounts used counts as a negative. For some assays here: Tags and fusion partners may be left off the protein sequences shown.", "data": [{"sequence": "ATTTCCACTGCAGTGGGTATAGGAACTTCGAACGACTCGACTGTGAAGATCGCTTATCGAGTCGTTCGAAGTTCCTATACCCACTGCAGTGGAAAT [REN2-PB-PstI]", "values": [{"measurement": "activity on this sequence", "setting": "[1]; pair SEQ 7+8", "result": "not active"}, {"measurement": "activity on this sequence", "setting": "[2]; pair with SEQ 7, RCA readout", "result": "active"}]}, {"sequence": "ATTTGACCTGCAGGTCGTATAGGAACTTCGAACGACTCGCCTCAATGCACATGTTTGGCTCCCGAGTCGTTCGAAGTTCCTATACGACCTGCAGGTCAAAT [REN2-ID33-PstI]", "values": [{"measurement": "activity on this sequence", "setting": "[1]; pair SEQ 7+8", "result": "not active"}, {"measurement": "activity on this sequence", "setting": "[2]; pair with SEQ 8, RCA readout", "result": "active"}]}, {"sequence": "ATTTCCAGAATTCTGGGTATAGGAACTTCGAACGACTCGACTGTGAAGATCGCTTATCGAGTCGTTCGAAGTTCCTATACCCAGAATTCTGGAAAT [REN2-PB-EcoRI]", "values": [{"measurement": "activity on this sequence", "setting": "[2]; [4]", "result": "not active"}, {"measurement": "activity on this sequence", "setting": "[3]; [5]", "result": "active"}]}, {"sequence": "ATTTCCACCGCGGTGGGTATAGGAACTTCGAACGACTCGACTGTGAAGATCGCTTATCGAGTCGTTCGAAGTTCCTATACCCACCGCGGTGGAAAT [REN2-PB-SacII]", "values": [{"measurement": "activity on this sequence", "setting": "[1]; pair SEQ 5+6", "result": "not active"}, {"measurement": "activity on this sequence", "setting": "[2]; [6]", "result": "not active"}]}, {"sequence": "ATTTGACCCGCGGGTCGTATAGGAACTTCGAACGACTCGCCTCAATGCACATGTTTGGCTCCCGAGTCGTTCGAAGTTCCTATACGACCCGCGGGTCAAAT [REN2-ID33-SacII]", "values": [{"measurement": "activity on this sequence", "setting": "[1]; pair SEQ 5+6", "result": "not active"}, {"measurement": "activity on this sequence", "setting": "[2]; [6]", "result": "not active"}]}, {"sequence": "ATTCACTGAATTCAGCGCTTAGGAGTGCATATACGATGCACTGTGAAGATCGCTTATGCATCGTATATGCACTCCTAAGCGCTGAATTCAGTGAAT [REN2B-PB-EcoRI]", "values": [{"measurement": "activity on this sequence", "setting": "[3]; pair with SEQ 1, detects 0.4 ug RY13 bacteria", "result": "active"}]}, {"sequence": "ATTTGACGAATTCGTCGTATAGGAACTTCGAACGACTCGCCTCAATGCACATGTTTGGCTCCCGAGTCGTTCGAAGTTCCTATACGACGAATTCGTCAAAT [REN2-ID33-EcoRI]", "values": [{"measurement": "activity on this sequence", "setting": "[2]; [4]", "result": "not active"}, {"measurement": "activity on this sequence", "setting": "[3]; [5]", "result": "active"}]}, {"sequence": "ATTTCCACTCGAGTGGGTATAGGAACTTCGAACGACTCGACTGTGAAGATCGCTTATCGAGTCGTTCGAAGTTCCTATACCCACTCGAGTGGAAAT [REN2-PB-XhoI]", "values": [{"measurement": "activity on this sequence", "setting": "[1]; pair SEQ 3+4", "result": "not active"}, {"measurement": "activity on this sequence", "setting": "[2]; [7]", "result": "not active"}]}, {"sequence": "ATTTGACCTCGAGGTCGTATAGGAACTTCGAACGACTCGCCTCAATGCACATGTTTGGCTCCCGAGTCGTTCGAAGTTCCTATACGACCTCGAGGTCAAAT [REN2-ID33-XhoI]", "values": [{"measurement": "activity on this sequence", "setting": "[1]; pair SEQ 3+4", "result": "not active"}, {"measurement": "activity on this sequence", "setting": "[2]; [7]", "result": "not active"}]}]}
